Pooled drug test results. Numbers come from NIAID ChemDB, via PubChem.

Common to all: whole-cell or culture tests; organism: HIV-1

Neighbouring rows are from separate reports. Blank or dashed fields: not listed here. ECn is the concentration giving n% inhibition of infection, replication or growth.

NC[C@H]1O[C@H](O[C@H]2[C@H](O)[C@@H](O)[C@H](N)C[C@@H]2N)[C@H](N)[C@@H](O)[C@@H]1O ; measure: EC50 ; method: luciferase ; cell line: CEM ; strain or isolate: S1 ; result: >5 µM
NC1=Nc2c(ncn2CCC(/C=C/P(=O)(O)O)CO)C(=O)C1 ; measure: EC50 ; method: cytopathic effect / MTT ; cell line: MT-4 ; strain or isolate: RF ; result: 48 µM
CN(C[C@@H](CCN1CCC2(CC1)CS(=O)c1ccccc12)c1cccc(Cl)c1)S(=O)(=O)c1ccccc1 ; measure: EC95 ; method: p24 ; cell line: PBMC ; strain or isolate: YU-2 (M-tropic) ; result: 12.5 µM
O=C(O)c1cc(SSc2ccc([N+](=O)[O-])c(C(=O)O)c2)ccc1[N+](=O)[O-] ; measure: EC50 ; method: p24 ; cell line: H9 ; strain or isolate: IIIB ; result: 300 µM
CCc1cc(COCc2cccc3ccccc23)c(OC)nc1C ; measure: EC50 ; method: RT activity ; cell line: CEM + CEM-SS ; strain or isolate: LAI ; result: >10 µM
NCCCCN(C[C@H]1Cc2ccccc2CN1Cc1ccncc1)[C@H]1CCCc2cccnc21 ; measure: EC50 ; method: MTS ; cell line: MAGI-CCR5 ; strain or isolate: IIIB ; result: 0.06 µM
Cc1cn([C@@H]2O[C@H](CO[Si](C)(C)C(C)(C)C)C3(OS(=O)(=O)C=C3N)[C@H]2O[Si](C)(C)C(C)(C)C)c(=O)n(C)c1=O ; measure: EC50 ; method: syncytia ; cell line: CEM ; strain or isolate: IIIB-TIBO(0.1) ; result: 0.07 µg/mL
CC(=O)Nc1cccc(C#Cc2cc(C)c(Oc3ccnc(Nc4ccc(C#N)cc4)n3)c(C)c2)c1 ; changes: F227L + V106A ; measure: EC50 ; method: MTT ; cell line: MT-4 ; strain or isolate: IIIB ; result: >0.844 µM
CCCN(C(=O)OCc1ccc([N+](=O)[O-])cc1)C1CCN(CC[C@H](CN(C)S(=O)(=O)c2ccccc2)c2ccccc2)CC1 ; measure: EC95 ; method: p24 ; cell line: PBMC ; strain or isolate: YU-2 (M-tropic) ; result: 0.1 µM
CC(=O)ON1COC[C@H]2O[C@@H](n3cc(C)c(=O)[nH]c3=O)C[C@@H]21 ; measure: EC50 ; method: syncytia ; cell line: CEM ; strain or isolate: IIIB ; result: >50 µg/mL
CC(C)(C)NC(=O)[C@H]1N(C(=O)[C@@H](O)[C@H](Cc2ccccc2)NC(=O)[C@H](CC(N)=O)NC(=O)COc2cccc(Nc3ccccc3)c2)CSC1(C)C ; measure: EC50 ; cell line: CEM + CEM-SS ; strain or isolate: IIIB ; result: 0.04 µM
Cc1cn([C@H]2C[C@H](N=[N+]=[N-])[C@@H](CO)O2)c(=O)[nH]c1=O ; changes: RT-L100I ; measure: EC50 ; method: syncytia ; cell line: CEM ; strain or isolate: IIIB-TIBO(0.5)(RT-L100I) ; result: 0.004 µM
CC(C)N1Cc2ccccc2C[C@@H]1CN(CCCCN)[C@H]1CCCc2cccnc21 ; measure: EC50 ; method: MTS ; cell line: MAGI-CCR5 ; strain or isolate: IIIB ; result: 0.02 µM
Cc1cn([C@H]2C[C@H](F)[C@@H](CO)O2)c(=O)[nH]c1=O ; measure: EC50 ; method: RT activity ; cell line: MT-4 ; strain or isolate: IIIB ; result: 0.005 µM
O=c1[nH]cnc2c1ncn2[C@H]1CC[C@@H](CO)O1 ; measure: EC50 ; method: syncytia ; cell line: CEM ; strain or isolate: IIIB-TIBO(0.1) ; result: 9 µM
CCCCCCCCCCCCCCOP(=O)(O)OC[C@H]1O[C@@H](n2cc(C)c(=O)[nH]c2=O)C[C@@H]1N=[N+]=[N-] ; measure: EC50 ; method: syncytia ; cell line: CEM + CEM/O ; strain or isolate: IIIB ; result: 0.61 µM
NCCCCN(C[C@H]1Cc2ccccc2CN1Cc1cccnc1)[C@H]1CCCc2cccnc21 ; measure: EC50 ; method: MTS ; cell line: MAGI-CCR5 ; strain or isolate: IIIB ; result: 0.07 µM
Cc1cn([C@H]2C[C@H](N=[N+]=[N-])[C@@H](CO)O2)c(=O)[nH]c1=O ; measure: EC50 ; method: ELISA ; cell line: H9 ; setting: 2 d ; result: <0.01 µg/mL
CCCN(C(=O)OCc1ccccc1)C1CCN(CCC(CN(C)S(=O)(=O)c2ccccc2)c2ccccc2)CC1 ; measure: EC50 ; method: p24 ; cell line: PBMC ; strain or isolate: YU-2 (M-tropic) ; result: <12.5 µM
CCCCCCCCCCCCCCCCOCCOP(=O)(O)OC[C@H]1O[C@@H](n2cc(C)c(=O)[nH]c2=O)C[C@@H]1N=[N+]=[N-] ; measure: EC50 ; method: syncytia ; cell line: CEM + CEM/O ; strain or isolate: IIIB ; result: 0.042 µM
CC(C)n1nc(-c2ccc3oc(N)nc3c2)c2c(N)ncnc21 ; measure: EC50 ; method: p24 / ELISA ; cell line: PBMC ; strain or isolate: 92UG031 ; result: 0.01015 µM
Cc1cn([C@H]2C[C@H](N=[N+]=[N-])[C@@H](CO)O2)c(=O)[nH]c1=O ; measure: EC50 ; method: cytopathic effect / MTT ; cell line: MT-4 ; strain or isolate: IIIB ; result: 0.0014 µM
CC(C)=CCN1Cc2cccc3[nH]c(=S)n(c23)C[C@@H]1C ; measure: EC50 ; method: cytopathic effect ; cell line: MT-2 ; strain or isolate: IIIB ; result: 0.23 ± 0.04 µM
CCc1cc(COCc2ccc(F)cc2)c(OC)nc1C ; measure: EC50 ; method: RT activity ; cell line: CEM + CEM-SS ; strain or isolate: LAI ; result: >10 µM
Nc1ncnc2c1ncn2CCOCP(=O)(O)O ; changes: RT-L100I ; measure: EC50 ; method: syncytia ; cell line: CEM ; strain or isolate: IIIB-BHAP)(0.1)(RT-L100I ; result: 19 µM
CCc1cc(COCc2ccc3ccccc3c2)c(=O)[nH]c1C ; measure: EC50 ; method: RT activity ; cell line: CEM + CEM-SS ; strain or isolate: LAI ; result: >10 µM
Cc1cn([C@H]2C[C@H](N=[N+]=[N-])[C@@H](COC(=O)[C@H](CCCN=C(N)N)NC(=O)[C@@H]3CCCN3C(=O)[C@H](CCCCN)NC(=O)[C@@H](N)[C@@H](C)O)O2)c(=O)[nH]c1=O ; measure: EC50 ; method: antigen ; cell line: CEM ; result: 0.0006 µg/mL
Cc1cc(C#Cc2ccccc2)cc(C)c1Oc1ccnc(NC2CCN(Cc3ccc(S(N)(=O)=O)cc3)CC2)n1 ; changes: Y181C ; measure: EC50 ; method: MTT ; cell line: MT-4 ; strain or isolate: IIIB ; result: 0.103 µM
CCc1cc(COCc2cccc(Br)c2)c(OC)nc1C ; measure: EC50 ; method: RT activity ; cell line: CEM + CEM-SS ; strain or isolate: LAI ; result: >10 µM
CN(C)CCCCN(C[C@H]1Cc2ccccc2CN1)[C@H]1CCCc2cccnc21 ; measure: EC50 ; method: MTS ; cell line: MAGI-CCR5 ; strain or isolate: IIIB ; result: 0.03 µM
O=c1[nH]cnc2c1ncn2[C@H]1CC[C@@H](CO)O1 ; measure: EC50 ; method: p24 ; cell line: C8166 ; strain or isolate: RF ; result: 0.9 µM
Nc1ccn([C@H]2CC[C@@H](CO)O2)c(=O)n1 ; measure: EC50 ; cell line: MT-4 ; strain or isolate: IIIB ; result: 0.06 µM
[Se] ; measure: EC50 ; method: RT activity ; cell line: U1 ; strain or isolate: LAV ; result: >0.1 µg/mL
O=C(O)C(=O)CC(=O)c1cc(OCc2ccccc2)cc(OCc2ccccc2)c1 ; measure: EC50 ; result: 2 µM
CCc1cc(COCc2ccc(Br)cc2)c(=O)[nH]c1C ; measure: EC50 ; method: RT activity ; cell line: CEM + CEM-SS ; strain or isolate: LAI ; result: >10 µM
Cc1cccc(C)c1OCC(=O)N[C@@H](Cc1ccccc1)[C@H](O)C(=O)N1CSC(C)(C)[C@H]1C(=O)NC(C)(C)C ; measure: EC50 ; cell line: MT-4 ; result: 1.73 µM
Cc1ccnc2c1NC(=O)c1cccnc1N2C1CC1 ; changes: RT-L74V K101E ; measure: EC50 ; cell line: MT-4 ; result: <1.5 µM
Cc1c(Sc2ccccc2)n(COCCO)c(=O)[nH]c1=O ; measure: EC50 ; method: RT activity ; cell line: CEM + CEM-SS ; strain or isolate: LAI ; result: 2 µM
CC(=O)OC[C@H]1O[C@@H](n2cc(C)c(=O)[nH]c2=O)C[C@@H]1N(C)OC(C)=O ; measure: EC50 ; method: syncytia ; cell line: CEM ; strain or isolate: IIIB ; result: >250 µg/mL
Cc1cn([C@H]2C[C@H](N=[N+]=[N-])[C@@H](CO)O2)c(=O)[nH]c1=O ; measure: EC50 ; method: RT activity ; cell line: CEM + CEM-SS ; strain or isolate: LAI ; result: 0.002 µM
Cc1cc(C#Cc2cccnc2)cc(C)c1Oc1ccnc(Nc2ccc(C#N)cc2)n1 ; measure: EC50 ; method: MTT ; cell line: MT-4 ; strain or isolate: IIIB ; result: 0.003 µM
CCc1cc(COCc2ccccc2)c(SC)nc1C ; measure: EC50 ; method: RT activity ; cell line: CEM + CEM-SS ; strain or isolate: LAI ; result: >10 µM
CC(C)=CCN1Cc2cc(Cl)cc3[nH]c(=O)n(c23)C[C@@H]1C ; measure: EC50 ; cell line: MT-4 ; strain or isolate: IIIB ; result: 0.18 µM
CN(CC(C)(CCN1CCC(N(CC(O)CO)C(=O)OCc2ccccc2)CC1)c1ccccc1)S(=O)(=O)c1ccccc1 ; measure: EC50 ; method: p24 ; cell line: PBMC ; strain or isolate: YU-2 (M-tropic) ; result: >6.3 µM
Cc1cn([C@H]2C[C@H](N=[N+]=[N-])[C@@H](CO)O2)c(=O)[nH]c1=O ; measure: EC50 ; method: p24 ; cell line: PBMC ; strain or isolate: RF ; result: 0.002 µM
CCCCCCCCCCCCOP(=O)(O)OC[C@H]1O[C@@H](n2cc(C)c(=O)[nH]c2=O)C[C@@H]1N=[N+]=[N-] ; measure: EC50 ; method: syncytia ; cell line: CEM + CEM/O ; strain or isolate: IIIB ; result: 0.31 µM
CCCCC[C@H](O)/C=C/[C@H]1C=CC(=O)[C@@H]1CCCCCCC(=O)O ; measure: EC50 ; method: p24 ; cell line: CEM + CEM-SS ; strain or isolate: IIIB ; result: 1 µg/mL
Cc1cn(Cc2nc3n(n2)CCCCCC3)c(=O)[nH]c1=O ; measure: EC50 ; cell line: MT-4 ; strain or isolate: IIIB ; result: >67 µg/mL
CCN(C(=O)OCc1ccc([N+](=O)[O-])cc1)C1CCN(CC[C@](C)(CN(C)S(=O)(=O)c2ccccc2)c2ccccc2)CC1 ; measure: EC90 ; cell line: MAGI + MAGI-CCR5 ; strain or isolate: YU-2 (M-tropic) ; result: <0.05 µM
NCCCCN(C[C@H]1NCCc2ccccc21)[C@H]1CCCc2cccnc21 ; measure: EC50 ; method: MTS ; cell line: MAGI-CCR5 ; strain or isolate: IIIB ; result: 0.25 µM
C=CCN(C(=O)OCc1ccccc1)C1CCN(CC[C@](CO)(CN(C)S(=O)(=O)c2ccccc2)c2ccccc2)CC1 ; measure: EC50 ; method: p24 ; cell line: PBMC ; strain or isolate: YU-2 (M-tropic) ; result: <0.055 µM
NCCCCN(C[C@H]1Cc2ccccc2CN1Cc1ccccn1)[C@H]1CCCc2cccnc21 ; measure: EC50 ; method: MTS ; cell line: MAGI-CCR5 ; strain or isolate: IIIB ; result: 0.06 µM
Cc1cc(C#Cc2ccccc2N)cc(C)c1Oc1ccnc(Nc2ccc(C#N)cc2)n1 ; changes: RES056 ; measure: EC50 ; method: MTT ; cell line: MT-4 ; strain or isolate: IIIB ; result: >8.88 µM
C1CNCCNCC(CCC2CNCCNCCCNCCNC2)CNCCNC1 ; measure: EC50 ; method: cytopathic effect / MTT ; cell line: MT-4 ; setting: 5 d ; strain or isolate: MN ; result: 0.26 µM
CC(=O)NCCCCN(C[C@H]1Cc2ccccc2CN1)[C@H]1CCCc2cccnc21 ; measure: EC50 ; method: MTS ; cell line: MAGI-CCR5 ; strain or isolate: IIIB ; result: 0.29 µM

6 of the rows above, restated:

structure | changes | measure | method | cell line | setting | strain or isolate | result
O=C(O)c1cc(SSc2ccc([N+](=O)[O-])c(C(=O)O)c2)ccc1[N+](=O)[O-] |  | EC50 | p24 | H9 |  | IIIB | 300 µM
CN(CC(C)(CCN1CCC(N(CC(O)CO)C(=O)OCc2ccccc2)CC1)c1ccccc1)S(=O)(=O)c1ccccc1 |  | EC50 | p24 | PBMC |  | YU-2 (M-tropic) | >6.3 µM
Cc1cccc(C)c1OCC(=O)N[C@@H](Cc1ccccc1)[C@H](O)C(=O)N1CSC(C)(C)[C@H]1C(=O)NC(C)(C)C |  | EC50 |  | MT-4 |  |  | 1.73 µM
NCCCCN(C[C@H]1Cc2ccccc2CN1Cc1ccccn1)[C@H]1CCCc2cccnc21 |  | EC50 | MTS | MAGI-CCR5 |  | IIIB | 0.06 µM
CCCN(C(=O)OCc1ccc([N+](=O)[O-])cc1)C1CCN(CC[C@H](CN(C)S(=O)(=O)c2ccccc2)c2ccccc2)CC1 |  | EC95 | p24 | PBMC |  | YU-2 (M-tropic) | 0.1 µM
O=c1[nH]cnc2c1ncn2[C@H]1CC[C@@H](CO)O1 |  | EC50 | p24 | C8166 |  | RF | 0.9 µM